PSTVd loop 15 mutant pool in Nicotiana benthamiana

Data from the supplement of Wu et al. 2024, doi:10.1371/journal.ppat.1012142.

The pool varies loop 15 of the PSTVd intermediate strain in the pattern GGAAACCGNNNNNNC; wild type is GGAAACCGCUACUAC (upper and lower strand joined, each 5' to 3', the first 7 letters being the upper strand, closing pairs included).

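A pool of all variants was put on leaves of three Nicotiana benthamiana plants. Samples came from the inoculated region at 5 days, the leaf margin at 10 and upper systemic leaves at 12.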

Numbers give reads per thousand; 0 = not seen among the reads, higher = more abundant. Each value is the mean of three plants. "Pool" is the share in the plasmid pool used as inoculum, on the same scale. The inoculated region was read from the minus strand, the other sites from the plus strand. The authors trace changes outside the varied positions to PCR and sequencing errors or to mutation in the plant; presence does not show that a variant is infectious alone.

| sequence | pool | inoculated region | leaf margin | systemic leaves |
|---|---|---|---|---|
| GGAAACCGAGACCCC | 0.208 | 0.0859 | 0.0141 | 0.00760 |
| GGAAACCGAGAUACC | 0.272 | 0.0713 | 0.0187 | 0 |
| GGAAACCGAGCCAUC | 0.160 | 0.114 | 0.0128 | 0 |
| GGAAACCGAGCCUAC | 0.176 | 0.365 | 0.174 | 0.0215 |
| GGAAACCGAUCUCGC | 0.128 | 0.130 | 0 | 0.0107 |
| GGAAACCGAUGAACC | 0.192 | 0.132 | 0 | 0 |
| GGAAACCGCAAAUGC | 0.112 | 0.0796 | 0.708 | 0 |
| GGAAACCGCAGGUGC | 0.256 | 0.350 | 0.0108 | 0 |
| GGAAACCGCCACGCC | 0.256 | 0.0849 | 0.0215 | 0 |
| GGAAACCGCCAGUAC | 0.192 | 0.360 | 0.100 | 0.0107 |
| GGAAACCGCGACGGC | 0.384 | 0.147 | 0.0249 | 0.0158 |
| GGAAACCGCUAGCUC | 0.192 | 0.321 | 0.135 | 0.0268 |
| GGAAACCGCUCCGUC | 0.320 | 0.114 | 0.0269 | 0.00537 |
| GGAAACCGCUCGAGC | 0.352 | 0.0621 | 0.0121 | 0 |
| GGAAACCGCUCUUCC | 0.224 | 0.113 | 0.00742 | 0 |
| GGAAACCGGACUACC | 0.192 | 0.0778 | 0 | 0 |
| GGAAACCGGCGGAGC | 0.272 | 0.143 | 0.00742 | 0.00537 |
| GGAAACCGGCGGCGC | 0.160 | 0.113 | 0.0256 | 0 |
| GGAAACCGGGAAGGC | 0.208 | 0.0724 | 0 | 0.0130 |
| GGAAACCGGGAGCAC | 0.208 | 0.0686 | 0 | 0 |
| GGAAACCGGUAGGUC | 0.224 | 0.272 | 0.116 | 0.0458 |
| GGAAACCGGUAUUCC | 0.256 | 0.262 | 0.145 | 0.0107 |
| GGAAACCGGUCUAAC | 0.192 | 0.138 | 0.00668 | 0.00537 |
| GGAAACCGGUGGCAC | 0.240 | 0.0867 | 0 | 0 |
| GGAAACCGGUUAAUC | 0.208 | 0.188 | 0.00668 | 0.0104 |
| GGAAACCGUACCGGC | 0.256 | 0.0828 | 0.00668 | 0.00537 |
| GGAAACCGUAGCUCC | 0.304 | 0.0631 | 0.00539 | 0 |
| GGAAACCGUAGUAAC | 0.144 | 0.282 | 0.164 | 0.00537 |
| GGAAACCGUCUGGAC | 0.144 | 0.270 | 0.0121 | 0.00537 |
| GGAAACCGUGACUGC | 0.336 | 0.303 | 0.0906 | 0.0765 |
| GGAAACCGUGCAUAC | 0.240 | 0.329 | 0.113 | 0.0546 |
| GGAAACCGUGCCAGC | 0.336 | 0.193 | 0.0208 | 0 |
| GGAAACCGUGCCAUC | 0.208 | 0.179 | 0.00539 | 0 |
| GGAAACCGUGGGACC | 0.288 | 0.0923 | 0.0128 | 0 |
| GGAAACCGUUAUGGC | 0.208 | 0.0847 | 0.0228 | 0 |

Excerpt, the final 3 entries:

For GGAAACCGUGCCAUC (pool 0.208) the result was inoculated region 0.179; leaf margin 0.00539; systemic leaves 0.
For GGAAACCGUGGGACC (pool 0.288) the result was inoculated region 0.0923; leaf margin 0.0128; systemic leaves 0.
For GGAAACCGUUAUGGC (pool 0.208) the result was inoculated region 0.0847; leaf margin 0.0228; systemic leaves 0.

For reference, wild type rose from 33.9 per thousand in the pool to 202, 200, 159 (inoculated region), 724, 746, 710 (leaf margin) and 856, 883, 880 (systemic leaves). Samples held 43,870 to 66,106 reads, so the smallest values rest on one or two reads.